Test results from publication PMC5469503 (PLoS Pathogens, 2017).

Protein sequences, listed by entry. Tags and fused reporters are not part of them. Lines headed by an entry give the natural chain unless they say otherwise; changes in a name come on top.
UniProt P16140, whole entry, looked up: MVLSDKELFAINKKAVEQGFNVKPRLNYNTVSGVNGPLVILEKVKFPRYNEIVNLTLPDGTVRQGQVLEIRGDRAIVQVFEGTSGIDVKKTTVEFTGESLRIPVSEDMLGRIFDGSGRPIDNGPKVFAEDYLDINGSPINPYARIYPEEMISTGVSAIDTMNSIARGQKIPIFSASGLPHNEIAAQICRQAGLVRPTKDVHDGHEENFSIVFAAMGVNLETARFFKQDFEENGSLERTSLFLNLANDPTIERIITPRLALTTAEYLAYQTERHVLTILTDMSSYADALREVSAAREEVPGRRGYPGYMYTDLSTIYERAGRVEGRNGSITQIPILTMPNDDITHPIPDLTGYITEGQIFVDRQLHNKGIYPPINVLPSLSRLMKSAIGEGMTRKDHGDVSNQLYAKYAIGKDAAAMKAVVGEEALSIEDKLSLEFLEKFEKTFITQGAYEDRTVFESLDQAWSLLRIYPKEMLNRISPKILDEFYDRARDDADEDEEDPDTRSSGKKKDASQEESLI
UniProt P17255: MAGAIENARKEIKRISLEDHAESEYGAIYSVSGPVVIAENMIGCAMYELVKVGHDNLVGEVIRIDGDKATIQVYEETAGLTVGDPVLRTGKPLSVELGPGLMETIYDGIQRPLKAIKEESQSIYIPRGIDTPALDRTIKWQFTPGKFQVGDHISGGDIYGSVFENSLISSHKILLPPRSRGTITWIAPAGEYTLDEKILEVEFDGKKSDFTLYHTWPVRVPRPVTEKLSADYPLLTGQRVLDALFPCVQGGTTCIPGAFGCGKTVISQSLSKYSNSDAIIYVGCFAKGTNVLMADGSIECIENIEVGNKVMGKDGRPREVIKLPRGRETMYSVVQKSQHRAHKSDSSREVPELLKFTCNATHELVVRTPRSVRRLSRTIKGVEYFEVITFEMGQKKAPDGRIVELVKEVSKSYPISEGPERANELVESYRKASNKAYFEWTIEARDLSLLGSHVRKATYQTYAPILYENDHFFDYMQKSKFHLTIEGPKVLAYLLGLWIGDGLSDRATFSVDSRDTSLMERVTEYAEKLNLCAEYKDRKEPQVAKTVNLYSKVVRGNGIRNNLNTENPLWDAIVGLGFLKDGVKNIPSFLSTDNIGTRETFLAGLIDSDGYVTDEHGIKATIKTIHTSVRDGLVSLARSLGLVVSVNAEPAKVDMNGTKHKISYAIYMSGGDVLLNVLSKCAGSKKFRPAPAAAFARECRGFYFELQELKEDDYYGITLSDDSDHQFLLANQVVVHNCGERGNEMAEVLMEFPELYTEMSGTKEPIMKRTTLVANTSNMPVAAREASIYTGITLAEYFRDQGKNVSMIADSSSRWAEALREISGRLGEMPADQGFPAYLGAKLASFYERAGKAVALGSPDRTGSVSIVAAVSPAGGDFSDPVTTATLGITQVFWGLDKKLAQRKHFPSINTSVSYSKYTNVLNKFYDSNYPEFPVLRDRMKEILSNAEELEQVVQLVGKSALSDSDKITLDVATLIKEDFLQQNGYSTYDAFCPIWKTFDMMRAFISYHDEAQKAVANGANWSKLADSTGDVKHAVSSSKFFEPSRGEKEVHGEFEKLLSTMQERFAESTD

Target: T1, V1:SidK complex (Saccharomyces cerevisiae, UniProt P16140+P17255)
T1 construct: gene VMA1

## 2',3'-O-(2,4,6-trinitrophenyl) adenosine 5'-triphosphate [TNP-ATP]
  Kd: 280 ± 60 nM
